Test results: the supplement of paper PMC9931576
Human monoclonal antibodies against the spike receptor-binding domain (heavy:light variable regions). IC50 against pseudoviruses bearing the spike of naturally observed variants; lower = stronger; >10 µg/ml means not reached at the top dose. No active / inactive call. The stated detection limit is 0.0005 µg/ml; values near or below 0.001 µg/ml lie at the floor of the assay.

B1: BD57-082 (protein)
chain 1: QITLKESGPTLVKPTQTLTLTCTFSGLSLTTSGVGVAWIRQPPGKALEWLALIYWDDDERYSPSLQSRLAITKDTSKNHVVLTMTNMDPVDTATYYCALHRIAEVFDYWGQGALVTVSS
chain 2: QSALTQPRSVSGSPGQSVTISCTATSSDVGVYNYVSWYQQHPGKAPKLMIYEVNKRPSGVPDRFSGSKSGNTASLSISGLQAEDEADYYCCSYTDKSVVFGGGTKLTVL
B2: BD57-092 (protein)
chain 1: QVQLVQSGAEVKKPGASVKVSCKASGYTFTTYSLHWVRQAPGQRLEWMGWIIPGNGNTEYSQKFQGRVTITRDTSASTAYMELTSLTSEDTAVYYCAREGSGWYSVYFDLWGRGTLVIVSS
chain 2: DIQMTQSPSSLSASIGDRVTITCRASQTISSYLNWYQQKPGKAPKLLIYAASSLQSGVPSRFSGSGSGTDFTLTISSLQPEDFATYYCQQSYYSPYTFGQGTKLEIK
B3: BD57-098 (protein)
chain 1: QITLKESGPTLVKPTQTLTLTCTFSGFSLSTSGVGVAWIRQPPGKALEWLSLIYWDDDERYSPSLRSRLTITKDTSKNQVVLIMTSMDPVDTATYYCALHQPSRAGWSMGSWGQGTLVTVSS
chain 2: QSVLTQPPSVSAAPGQKVTISCSGSSSNIGDNFVSWYQQLPGAAPKLIIYDNNNRPSGIPDRFSASKSGTSATLGITGLQTGDEADYFCGTWESGGLSPWVFGGGTKLTVL
B4: BD56-004 (protein)
chain 1: QVQLVESGGGLVKPGGSLRLSCAASGFTFSDYDMSWIRQAPGKGLEWVSKITSSRSAMHYADSVKGRFTISRDNAKNSLYLQMNSLRAEDTALYYCTRDLWTIKSGWYALDGQAFDNWGQGTLVTVSS
chain 2: QSVLTQPPSLSGAPGQRVTISCTGSSSNIGAGYDVHWYQQLPGTAPKLLIYENTNRPSGVPDRFSGSKSGTSASLAITGLQAEDEADYYCQSYDSGLSGPYWVFGGGTKLTVL
B5: BD56-019 (protein)
chain 1: QVQLVQSGSQLKKPGASVKVSCKASGYTFTSYVMNWVRQAPGQGLEWMGLINTNTGNPTYAQGFTGRFVFSLDTSVSTVYLQISSLRAADTAVYFCARGGPYYYDSSGYYNVDYDYGMDVWGRGTTVTVSS
chain 2: QSVLTQPPSVSGAPGQRVTISCTGSSSNIGAGYDVHWYQQLPGTAPKLLIYGNSNRPSGVPDRFSGSKSGTSASLASTGLQAEDEADYYCQSYDSSLSAWVFGGGTKLTVL
B6: BD56-028 (protein)
chain 1: QVQLVQSGAEVKKPGASVKVSCKSSGYTFTTSAVHWVRQAPGQRLEWMGWINPGTGDTKFSPKFQGRVTITRDTSASTAYMELSSLRSEDTAVYYCARDIEVAAETFEYWGQGTLVTVSS
chain 2: DIQMTQSPSTLSASVGDRVTITCRASQTISSWLAWYRQKPGKAPKLLIYDASSLESGVPSRFSGSGSGTEFTLTISSLQPDDFATYYCQQSSSYPTFGQGTKVEIK

How the values were obtained:
Test in all cases: pseudovirus neutralization IC50; higher = weaker neutralization
[1] = molecular target: SARS-CoV-2 Omicron BA.1 spike pseudovirus
Experimental: (§1)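 Single-round VSV luciferase pseudovirus mixed with antibody dilutions for 1 h and put on Huh-7 cells for about a day; IC50 from the dose curve.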

[2] = molecular target: SARS-CoV-2 Omicron BA.2 spike pseudovirus
Experimental: as §1

[3] = molecular target: SARS-CoV-2 Omicron BA.2.75 spike pseudovirus
Experimental: as §1

[4] = molecular target: SARS-CoV-2 Omicron BA.5 spike pseudovirus
Experimental: as §1

[5] = molecular target: SARS-CoV-2 Omicron BQ.1.1 spike pseudovirus
Experimental: as §1

[6] = molecular target: SARS-CoV-2 Omicron XBB spike pseudovirus
Experimental: as §1

[7] = molecular target: SARS-CoV-2 early D614G spike pseudovirus
Experimental: as §1

Binder | pseudovirus neutralization IC50 [1] | pseudovirus neutralization IC50 [2] | pseudovirus neutralization IC50 [3] | pseudovirus neutralization IC50 [4] | pseudovirus neutralization IC50 [5] | pseudovirus neutralization IC50 [6] | pseudovirus neutralization IC50 [7]
B1 | 0.00622 µg/mL | 0.000425 µg/mL | 0.00438 µg/mL | 0.000714 µg/mL | 2.9 µg/mL | > 10 µg/mL | 0.00157 µg/mL
B2 | 7.56 µg/mL | 8.21 µg/mL | 7.66 µg/mL | 7.22 µg/mL | 3.6 µg/mL | > 10 µg/mL | 0.702 µg/mL
B3 | 0.00354 µg/mL | 0.00244 µg/mL | 0.00154 µg/mL | 0.00382 µg/mL | 4.36 µg/mL | 1.4 µg/mL | 0.00237 µg/mL
B4 | 0.0895 µg/mL | 0.834 µg/mL | 0.304 µg/mL | 0.574 µg/mL | 0.692 µg/mL | 0.916 µg/mL | 0.0154 µg/mL
B5 | 0.615 µg/mL | > 10 µg/mL | > 10 µg/mL | > 10 µg/mL | > 10 µg/mL | > 10 µg/mL | 0.276 µg/mL
B6 | 0.00254 µg/mL | 0.00296 µg/mL | 0.00325 µg/mL | 0.182 µg/mL | > 10 µg/mL | > 10 µg/mL | 0.0083 µg/mL
